Sequences and labels used below:
B1: BD55-5324 (protein)
chain 1: QVQLVQSGSELKKPGASVKVSCKTSGYTFTTYAIKWVRQAPGQGLEWMGWINTNTGHPTYAQGFTGRFVFSSDTSVTTAYLQINSLKAEDTAIYYCAKVFCSGGTCYDVDYWGQGTLITVSS
chain 2: QSVLTQPPSASGTPGQSVTISCSGSISNIGSNFVYWYQKFPGTAPKLLIYRNNHRPSGLPDRFSGSKSGTSASLAISGLRSEDEADYYCAAWDDSLSGRLFGGGTKLTVL
B2: BD55-5325 (protein)
chain 1: QITLKESGPTLVKPTQTLTLTCTFSGFSLSNTEVGVGWIRQPPGKALEWLALIYWDDDKRYSPSLKSRLTIAKDTSKNQVVLTMTNVDPVDTATYFCAHSHYDFLTGFSGFDYWGPGTVVTVSS
chain 2: DIVMTQTPLSSPVTLGQPASISCTSSQSLVHSDGNTYLNWLQQRPGQPPRLLIYQISKRFSGVPDRFTGSGAGTDFTLNISRVEAEDVGVYSCMQATQFPHEMYTFGQGTKLEIK
B3: BD55-5326 (protein)
chain 1: QVQLVQSGAEVKRPGASVKVSCRTSGYTFTDYYIHWVRQAPGQGLEWMGIINPSAGTTTYARKFQGRVTLTRDTSTSTVSMDLSSLRSDDTAVYYCAREGLTGFSANWFDPWGQGTLVTVSS
chain 2: DIQLTQSPSFLSASVGDRVTITCRASEDIASYLAWYQQKPGKAPKFLIYAASTLQSGVPSRFSGRRSGTEFTLTISSLQPEDFATYFCQQLNGYPITFGGGTRVEIK
B4: BD55-5395 (protein)
chain 1: QVQLVQSGAEVKKPGSSMKVSCKASGGTFSRSAISWVRQAPGQGLEWMGGIIPMFGTPNYAQKFQGRVTITADESTSTAYMELSSLRSEDTAVYYCARDWIYGSGSYYGMDVWGQGTTVSVSS
chain 2: QAVVTQEPSLTVSPGGTVTLTCGSTTGPVTGDHYAYWFQQKPGQAPKTLIYDTAHKHSWTPARFSGSFLGGKAALTLSGAQPEDEAQYYCLLSYSGAFVFGAGTKVTVL
B5: BD55-5408 (protein)
chain 1: QVQLVQSGAEVRKPGASVKVSCKASGYIFTNYLMYWVRQAPGHGLEWMGMIDPISGSTNYAQRFQGRVTMTRDTSTSTVNMELTNLKSEDTAVYYCARDGGMRFGDLSPDNWFDPWGRGTLVTVSS
chain 2: QSVLTQPPSVSGAPGQRVTISCTGSSSNLGAGYDVHWYQQLPGAAPKLLIYGNNNRPSGVPDRFSGSRSGTSASLAITGLLTEDEADYYCQSYDSSSLNGSKVFGTGTKVTVL
B6: BD55-5342 (protein)
chain 1: QVQLVQSGAEVKKPGASVKVSCKASGYTFTTYAITWVRQAPGQGLELMGWISTYTGSAIYAQQLQGRVTMTTDTSTSTAYMELRRLRSDDTAVYYCARHNPETGFQNWGQGTLVTVSS
chain 2: DIVMTQSPESLAVSLGERATINCKSSQSLLFSSNNKNYLAWYQQKPGQPPKLLIYWASTRESGVPDRFSGSGSGTDFTLTLSSLQAEDVAVYFCQQYYTPLYTFGPGTKVEIK

Human monoclonal antibodies against the spike receptor-binding domain (heavy:light variable regions). IC50 against pseudoviruses bearing the spike of naturally observed variants; lower = stronger; >10 µg/ml means not reached at the top dose. No active / inactive call. The stated detection limit is 0.0005 µg/ml; values near or below 0.001 µg/ml lie at the floor of the assay.

The target in the first assay is SARS-CoV-2 Omicron BA.1 spike pseudovirus. Nature of the assay: pseudovirus neutralization IC50; higher = weaker neutralization. The method, then:
(§1)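 Single-round VSV luciferase pseudovirus mixed with antibody dilutions for 1 h and put on Huh-7 cells for about a day; IC50 from the dose curve.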
On to B1, for which the “pseudovirus neutralization IC50” value was above 10 µg/mL.

Regarding B2, the “pseudovirus neutralization IC50” value is above 10 µg/mL.

In the case of B3, the “pseudovirus neutralization IC50” value is above 10 µg/mL.

As to B4, the “pseudovirus neutralization IC50” value was above 10 µg/mL.

B5: the “pseudovirus neutralization IC50” value is above 10 µg/mL.

Consider B6, for which the “pseudovirus neutralization IC50” value is above 10 µg/mL.

In a further assay the target is SARS-CoV-2 Omicron BA.2 spike pseudovirus. The description is as above. The method, then: as §1
Take B1: the “pseudovirus neutralization IC50” value was above 10 µg/mL.

Turning to B2, the “pseudovirus neutralization IC50” value was above 10 µg/mL.

As to B3, the “pseudovirus neutralization IC50” value was above 10 µg/mL.

Regarding B4, the “pseudovirus neutralization IC50” value is above 10 µg/mL.

Regarding B5, the “pseudovirus neutralization IC50” value is above 10 µg/mL.

In the case of B6, the “pseudovirus neutralization IC50” value is above 10 µg/mL.

A further assay addresses SARS-CoV-2 Omicron BA.2.75 spike pseudovirus. The assay is described as above. On the procedure: as §1
Turning to B1, the “pseudovirus neutralization IC50” value is above 10 µg/mL.

For the molecule B2, the “pseudovirus neutralization IC50” value is above 10 µg/mL.

As for B3, the “pseudovirus neutralization IC50” value is above 10 µg/mL.

In the case of B4, the “pseudovirus neutralization IC50” value is above 10 µg/mL.

B5: the “pseudovirus neutralization IC50” value is above 10 µg/mL.

Turning to B6, the “pseudovirus neutralization IC50” value was above 10 µg/mL.

The next assay addresses SARS-CoV-2 Omicron BA.5 spike pseudovirus. The assay is described as above. The method, then:
as §1
For the molecule B1, the “pseudovirus neutralization IC50” value is above 10 µg/mL.

Consider B2, for which the “pseudovirus neutralization IC50” value is above 10 µg/mL.

For the molecule B3, the “pseudovirus neutralization IC50” value was above 10 µg/mL.

B4: the “pseudovirus neutralization IC50” value is above 10 µg/mL.

For the molecule B5, the “pseudovirus neutralization IC50” value is above 10 µg/mL.

Consider B6, for which the “pseudovirus neutralization IC50” value was above 10 µg/mL.

In a further assay the target is SARS-CoV-2 Omicron BQ.1.1 spike pseudovirus. Described as above. On the procedure: as §1
B1: the “pseudovirus neutralization IC50” value is above 10 µg/mL.

Regarding B2, the “pseudovirus neutralization IC50” value was above 10 µg/mL.

Regarding B3, the “pseudovirus neutralization IC50” value was above 10 µg/mL.

Regarding B4, the “pseudovirus neutralization IC50” value is above 10 µg/mL.

Consider B5, for which the “pseudovirus neutralization IC50” value was above 10 µg/mL.

Turning to B6, the “pseudovirus neutralization IC50” value was above 10 µg/mL.

The target in another assay is SARS-CoV-2 Omicron XBB spike pseudovirus. The assay is described as above. On the procedure:
as §1
As for B1, the “pseudovirus neutralization IC50” value was above 10 µg/mL.

Take B2: the “pseudovirus neutralization IC50” value was above 10 µg/mL.

On to B3, for which the “pseudovirus neutralization IC50” value was above 10 µg/mL.

On to B4, for which the “pseudovirus neutralization IC50” value was above 10 µg/mL.

For B5, the “pseudovirus neutralization IC50” value is above 10 µg/mL.

For the molecule B6, the “pseudovirus neutralization IC50” value was above 10 µg/mL.

The target in another assay is SARS-CoV-2 early D614G spike pseudovirus. The assay is described as above. On the procedure: as §1
In the case of B1, the “pseudovirus neutralization IC50” value was 0.0503 µg/mL.

In the case of B2, the “pseudovirus neutralization IC50” value came out at 0.894 µg/mL.

Regarding B3, the “pseudovirus neutralization IC50” value is above 10 µg/mL.

As to B4, the “pseudovirus neutralization IC50” value was above 10 µg/mL.

As for B5, the “pseudovirus neutralization IC50” value amounted to 0.171 µg/mL.

Turning to B6, the “pseudovirus neutralization IC50” value came out at 0.0135 µg/mL.

The values are drawn from the supplement of paper PMC9931576.
